For the experiment, the target named is vcFabH1 (Vibrio cholerae serotype O1, UniProt Q9KQH5). The experiment is classed as biochemical.

Chains of the proteins cited; added tags and fusions are not shown. Lines headed by an entry give the natural chain unless they say otherwise; changes in a name come on top.
UniProt Q9KQH5: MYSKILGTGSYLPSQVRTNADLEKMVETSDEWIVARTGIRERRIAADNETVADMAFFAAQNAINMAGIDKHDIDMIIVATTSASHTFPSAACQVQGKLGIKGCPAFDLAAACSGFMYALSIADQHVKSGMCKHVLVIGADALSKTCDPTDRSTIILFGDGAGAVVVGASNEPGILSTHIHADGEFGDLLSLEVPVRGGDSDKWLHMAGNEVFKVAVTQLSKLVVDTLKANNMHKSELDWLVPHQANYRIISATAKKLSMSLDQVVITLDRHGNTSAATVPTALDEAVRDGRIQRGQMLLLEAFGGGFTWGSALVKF

One molecule from article PMC6105497 (The FEBS journal, 2018) can be followed below.

On to `CCC(=O)SCCNC(=O)CCNC(=O)[C@H](O)C(C)(C)COP(=O)(O)OP(=O)(O)OC[C@H]1O[C@@H](n2cnc3c(N)ncnc32)[C@H](O)[C@@H]1OP(=O)(O)O` [propionyl-CoA], for which the “Substrate utilization by vcFabH1 (in words)” value is “more efficiently than acetyl-CoA”.
